System: Nc1ncnc2c1ncn2[C@@H]1O[C@H](COP(=O)(O)OP(=O)(O)OP(=O)(O)O)[C@@H](O)[C@H]1O
Experiment: purified protein
Conditions: 25 mM MES-Tris pH 6.5, 4 mM MgSO4, 10% glycerol, 25 C

Substance	Km [µM]	Km (A3B3 reconstituted with AMP-PNP) [µM]
E. hirae V1-ATPase (A3B3DF complex) (Enterococcus hirae ATCC 9790; Q08636:L476A/Q08637:L389A)	270	–
E. hirae V1-ATPase (A3B3DF complex) (Enterococcus hirae ATCC 9790; Q08636:L476A/Q08636:V477A)	–	450

— paper PMC3879392
